Test results published in publication PMC2742733, “Bacillus anthracis Lethal Toxin Disrupts TCR Signaling in CD1d-Restricted NKT Cells Leading to Functional Anergy” (2009).

Target: specific receptors for PA on NKT cells (mouse (endogenous in C57BL/6 NKT cells))
Assay: flow cytometry on cells

Substance: Alexa 647-conjugated protective antigen (PA) of Bacillus anthracis (from UniProt P13423) (natural protein)
- Kd: 20 nM
